In patent US4835162A (priority 1987, dated 1989):

System: rats
Assay: Blockade of nicotine-induced prostration, intraventricular (Example 2)
Type: in vivo, Sprague-Dawley male rats
Settings: i.v.c. 1 min. prior to 2 nmoles nicotine; dose producing 50% efficacy

Q: Which “Blockade of (nicotine-induced prostration) EC50” value does the source give for `CNC(=O)OC1CN2CCC1CC2` (stereo not shown) here?
A: The value was 100 nmol.
